Anti-infective test results gathered from many reports (values: NIAID ChemDB through PubChem).

Shared fields: growth or infection tests; species: HIV-1; read by: RT activity; endpoint: EC50

ECn: concentration that inhibits the pathogen or its effect by n%.

structure | strain | changes | cells | setting | result
CCNc1nc(N)nc2c1ncn2[C@H]1CO[C@@H](CO)O1 | LAI | - | PBMC | - | 0.41 µM
Cc1cn([C@@H]2C[C@H](O)[C@H](CO)O2)c(=O)[nH]c1=O | LAI | - | PBMC | - | >10 µM
CCOC(=O)CCNP(=O)(OC[C@@H]1O[C@H](n2cc(C)c(=O)[nH]c2=O)C[C@H]1N=[N+]=[N-])OC[C@H]1O[C@@H](n2cc(C)c(=O)[nH]c2=O)C[C@@H]1N=[N+]=[N-] | LAI | - | CEM + CEM-SS | - | 0.016 µM
CC(C)(C)OC(=O)NCCCCCCNC(=O)/C=C/c1cn([C@H]2C=C[C@@H](CO)O2)c(=O)[nH]c1=O | LAI | - | CEM + CEM-SS | - | 50 µM
Nc1ccn([C@@H]2C=C[C@H](CO)O2)c(=O)n1 | LAI | - | PBMC | - | 1 µM
CC(C)C[C@H](NC(=O)[C@@H](O)[C@H](N)Cc1ccccc1)C(=O)O | IIIB | - | HuT-78 + HUT 78 | - | 20 µg/mL
Nc1ccn([C@@H]2C[C@@H](O)[C@H](CO)O2)c(=O)n1 | LAI | - | PBMC | - | >200 µM
CC[C@H](C)[C@H](NC(=O)[C@@H]1CCCN1C[C@@H](O)[C@H](Cc1ccccc1)NC(=O)[C@H](CC(N)=O)NC(=O)[C@H](CC(C)C)NC(C)=O)C(=O)N[C@H](C(N)=O)C(C)C | TC354 | - | CBMC(PHA) + CBMC | 4 d | >10 µM
Nc1nc(=O)n([C@@H]2CS[C@H](CO)O2)cc1F | M48 ddI-resistant | - | PBMC | - | 0.01 µM
CONc1nc(=O)n([C@H]2C[C@H](N=[N+]=[N-])[C@@H](CO)O2)cc1C | LAV-Bru | - | CEM-C113 + CEM/C113 | - | 169 µM
Cc1cn([C@@H]2C[C@@H](N=[N+]=[N-])[C@H](CO)O2)c(=O)[nH]c1=O | LAI | - | PBMC | - | >100 µM
CC[C@H](C)[C@H](NC(=O)[C@@H]1CCCN1C[C@H](O)[C@H](Cc1ccccc1)NC(=O)[C@H](CC(N)=O)NC(=O)[C@H](CC(C)C)NC(C)=O)C(=O)N[C@H](C(N)=O)C(C)C | TC354 | - | CBMC(PHA) + CBMC | 4 d | >10 µM
O=c1ccc(-c2ccc(C(F)(F)F)cc2)c(O)c(O)c1O | LAI | - | CEM + CEM-SS | - | 5 µM
Nc1ccn([C@H]2CC[C@@H](CO)O2)c(=O)n1 | LAI | - | MT-2 | - | 0.034 µM
Cc1cn([C@H]2C[C@H](N=[N+]=[N-])[C@@H](CO)O2)c(=O)[nH]c1=O | - | - | CEM | - | >0.00015 µg/mL
CNc1nc(N)nc2c1ncn2[C@H]1CO[C@@H](CO)O1 | LAI | - | PBMC | - | 1.3 µM
Nc1nc(=O)n([C@@H]2C[Se][C@H](CO)O2)cc1F | LAV | - | PBMC | - | 0.21 µM
O=c1ccc(-c2cccc(C(F)(F)F)c2)c(O)c(O)c1O | LAI | - | CEM + CEM-SS | - | 3 µM
Cc1cn([C@H]2C[C@H](N=[N+]=[N-])[C@@H](COP(=O)(O)OC[C@H]3OC(O)[C@@H](O)[C@@H](O)[C@@H]3O)O2)c(=O)[nH]c1=O | LAV-Bru | - | PBL | 7 d | <1 µM
CC(=O)Nc1cccc(-c2ccc(=O)c(O)c(O)c2O)c1 | LAI | - | CEM + CEM-SS | - | 10 µM
COC(=O)CCCCCNC(=O)/C=C/c1cn([C@H]2C=C[C@@H](CO)O2)c(=O)[nH]c1=O | LAI | - | CEM + CEM-SS | - | >100 µM
CCc1nc2ccccn2c1C(=O)c1cccs1 | LAI | - | CEM + CEM-SS | - | 2 µM
CSc1ccn([C@H]2C[C@H](N=[N+]=[N-])[C@@H](CO)O2)c(=O)n1 | LAV-Bru | - | CEM-C113 + CEM/C113 | - | 176 µM
CC(C)(C)C(=O)SCCCCOP(=O)(OCCCCSC(=O)C(C)(C)C)OC[C@@H]1CC[C@H](n2cnc3c(N)ncnc32)O1 | LAI | - | CEM + CEM TK- | - | >10 µM
Nc1nc2c(ncn2[C@H]2CO[C@@H](CO)O2)c(=O)[nH]1 | LAI | - | PBMC | - | 0.51 µM
O=c1ccc(-c2ccsc2)c(O)c(O)c1O | LAI | - | CEM + CEM-SS | - | 3 µM
Cc1cn([C@@H]2C[C@@H](N=[N+]=[N-])[C@H](COP(N)(=O)OC[C@H]3O[C@@H](n4cc(C)c(=O)[nH]c4=O)C[C@@H]3N=[N+]=[N-])O2)c(=O)[nH]c1=O | LAI | - | CEM + CEM-SS | - | 0.014 µM
Cc1cn([C@H]2C[C@H](N=[N+]=[N-])[C@@H](CO)O2)c(=O)[nH]c1=O | LAV-Bru | - | PBL | 7 d | <1 µM
COc1nc(N)nc2c1ncn2[C@H]1CO[C@@H](CO)O1 | LAI | - | PBMC | - | 3.8 µM
O=c1[nH]cnc2c1ncn2[C@H]1CC[C@@H](CO)O1 | HXB2-D184+294 (RT M184V P294S) | RT-M184V P294S | MT-4 | - | 37.5 µM
Nc1ncnc2c1ncn2[C@H]1CC[C@@H](CO)O1 | LAI | - | CEM + CEM TK- | - | 1 µM
Cc1cn([C@H]2C[C@H](N=[N+]=[N-])[C@@H](CO)O2)c(=O)[nH]c1=O | RTMF(RT-T215Y) | RT-T215Y | PBMC | - | 0.18 µM
Cc1cn([C@H]2C[C@H](N=[N+]=[N-])[C@@H](COP(=O)(O)OC[C@H]3OC(O)[C@H](O)[C@@H](O)[C@@H]3O)O2)c(=O)[nH]c1=O | LAV-Bru | - | CEM | 26 d | <5 µM
Nc1ncnc2c1ncn2[C@@H]1C[C@@H](O)[C@H](CO)O1 | LAI | - | PBMC | - | >10 µM
Cc1cn([C@H]2C[C@H](N=[N+]=[N-])[C@@H](CO)O2)c(=O)[nH]c1=O | LAI | - | PBMC | - | 0.007 µM
CCc1nc2ccccn2c1C(=O)c1ccc(O)cc1 | IIIB | - | MT-4 | - | >100 µM
CC(C)(C)NC(=O)[C@@H]1CN(Cc2cccnc2)CCN1C[C@@H](O)C[C@@H](Cc1ccccc1)C(=O)N[C@H]1c2ccccc2C[C@H]1O | LAI | - | MT-2 | - | 0.003 µM
CC[C@H](C)[C@H](NC(=O)[C@@H]1CCCN1C[C@H](O)[C@H](Cc1ccccc1)NC(=O)[C@H](CC(N)=O)NC(=O)[C@H](CC(C)C)NC(=O)[C@H](CO)NC(C)=O)C(=O)N[C@H](C(=O)OC)C(C)C | TC354 | - | CBMC(PHA) + CBMC | 4 d | >10 µM
CON(Cc1ccc(F)cc1)C(=O)/C=C(\O)C(=O)O | LAI | - | MT-2 | - | 0.079 µM
CCO/N=C(/c1ccco1)c1c(CC)nc2sccn12 | IIIB | - | MT-4 | - | 82 µM
COC(=O)N[C@H](C(=O)N[C@@H](Cc1ccccc1)[C@@H](O)CN(Cc1ccc(-c2ccccn2)cc1)NC(=O)[C@@H](NC(=O)OC)C(C)(C)C)C(C)(C)C | LAI | - | MT-2 | - | 0.0007 µM
O[C@]12C=C(Cc3cc4cc(F)ccc4[nH]3)[C@@H]3CCN(CCCC/C=C\CC1)C[C@@]31C[C@@H]3CCCCCCN3C12 | LAV | - | PBMC | - | 1.1 µM
Cc1cn([C@H]2C[C@H](N=[N+]=[N-])[C@@H](CO)O2)c(=O)[nH]c1=O | M6 (AZT-resistant) | - | PBMC | - | 13.9 µM
Cc1cn([C@@H]2CC[C@H](CO)O2)c(=O)[nH]c1=O | LAI | - | PBMC | - | >100 µM
CC(C)=CCN1Cc2cc(Cl)cc3[nH]c(=S)n(c23)C[C@@H]1C | SK1 | - | CEM + CEM-SS | - | 0.031 µM
Cc1cn([C@H]2C[C@H](N=[N+]=[N-])[C@@H](COP(=O)(OCCSC(=O)C(C)(C)C)OCCSC(=O)C(C)(C)C)O2)c(=O)[nH]c1=O | LAI | - | CEM + CEM-SS | - | 0.0004 µM

Repeating the final 5 entries:

structure,strain,changes,cells,setting,result
O[C@]12C=C(Cc3cc4cc(F)ccc4[nH]3)[C@@H]3CCN(CCCC/C=C\CC1)C[C@@]31C[C@@H]3CCCCCCN3C12,LAV,-,PBMC,-,1.1 µM
Cc1cn([C@H]2C[C@H](N=[N+]=[N-])[C@@H](CO)O2)c(=O)[nH]c1=O,M6 (AZT-resistant),-,PBMC,-,13.9 µM
Cc1cn([C@@H]2CC[C@H](CO)O2)c(=O)[nH]c1=O,LAI,-,PBMC,-,>100 µM
CC(C)=CCN1Cc2cc(Cl)cc3[nH]c(=S)n(c23)C[C@@H]1C,SK1,-,CEM + CEM-SS,-,0.031 µM
Cc1cn([C@H]2C[C@H](N=[N+]=[N-])[C@@H](COP(=O)(OCCSC(=O)C(C)(C)C)OCCSC(=O)C(C)(C)C)O2)c(=O)[nH]c1=O,LAI,-,CEM + CEM-SS,-,0.0004 µM

Blank or dashed fields: not listed here. Rows are shuffled and stem from different studies.